By UniProt entry, the sequences of proteins in these tests, tags left out. Where a name states a change or a piece, a line headed by the entry shows the natural chain unless it says otherwise.
UniProt O96935: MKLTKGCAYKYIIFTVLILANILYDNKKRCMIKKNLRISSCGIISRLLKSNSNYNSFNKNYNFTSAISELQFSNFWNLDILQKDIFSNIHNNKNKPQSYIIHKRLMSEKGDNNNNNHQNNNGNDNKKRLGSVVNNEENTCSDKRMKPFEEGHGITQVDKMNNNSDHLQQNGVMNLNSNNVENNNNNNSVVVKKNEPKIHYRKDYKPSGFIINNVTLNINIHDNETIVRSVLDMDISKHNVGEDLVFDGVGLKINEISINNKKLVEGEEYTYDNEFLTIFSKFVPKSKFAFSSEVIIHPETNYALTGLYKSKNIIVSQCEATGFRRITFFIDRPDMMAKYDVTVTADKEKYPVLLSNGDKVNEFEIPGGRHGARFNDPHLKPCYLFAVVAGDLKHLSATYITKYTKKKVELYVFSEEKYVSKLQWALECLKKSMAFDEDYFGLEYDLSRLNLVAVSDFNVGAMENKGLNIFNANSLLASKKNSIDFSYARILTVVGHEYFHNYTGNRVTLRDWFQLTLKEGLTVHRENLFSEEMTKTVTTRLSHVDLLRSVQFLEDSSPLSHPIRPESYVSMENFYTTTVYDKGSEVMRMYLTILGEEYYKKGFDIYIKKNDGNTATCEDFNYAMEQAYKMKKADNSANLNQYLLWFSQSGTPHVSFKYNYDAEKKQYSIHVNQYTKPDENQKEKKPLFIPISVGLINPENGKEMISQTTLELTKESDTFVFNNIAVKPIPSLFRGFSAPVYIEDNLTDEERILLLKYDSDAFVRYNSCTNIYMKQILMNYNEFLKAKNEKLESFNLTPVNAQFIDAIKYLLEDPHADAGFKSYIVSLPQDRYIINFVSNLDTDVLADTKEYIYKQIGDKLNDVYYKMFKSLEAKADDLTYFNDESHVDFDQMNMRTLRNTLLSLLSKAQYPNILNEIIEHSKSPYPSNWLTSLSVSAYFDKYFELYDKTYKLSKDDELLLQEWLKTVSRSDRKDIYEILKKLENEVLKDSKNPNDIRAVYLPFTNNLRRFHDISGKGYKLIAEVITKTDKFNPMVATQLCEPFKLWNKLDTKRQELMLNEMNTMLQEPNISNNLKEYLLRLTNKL

Where “and” joins values, the source holds several entries; their conditions need not be identical. Identical values can stand only once. Only a part is listed here, and it is no random draw. Potency and affinity values are given separately. Calls of active or inactive are those of the source.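 Rule for the calls: active = primary inhibition above the hit cutoff, then over 50% inhibition at one or more dose response concentrations (cut at about 23% in these data, passing the limit was not always enough); inconclusive = conflicting primary data, or primary hits not chosen for dose response; inactive = low primary inhibition, or under 50% at every dose.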
Each compound was assayed against Aminopeptidase N (Plasmodium falciparum (isolate 3D7)) (UniProt O96935) (assay: malaria alanyl aminopeptidase activity blockers – biochemical, fluorogenic H-Leu-NHMec substrate, 1536-well (AID 1445;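 note: plate controls were DMSO full reaction for no effect and no enzyme background for full effect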)). Details: recombinant M1AAP, H-Leu-NHMec fluorogenic kinetic assay; at 30 µM; active compounds read high.
With `O=P(Nc1ccccn1)(c1ccc(Br)cc1)c1ccc(Br)cc1` the inhibition was inactive: 2.17%. In the case of `O=P(Nc1nc2ccccc2s1)(c1ccccc1)c1ccccc1`, the inhibition is reported as inactive: 1.55%. With `C[C@H]1OP(=O)(Oc2ccccc2)[C@H](O)[C@H](O)[C@H]1N=[N+]=[N-]` (some centres undefined) the inhibition was inactive: 0.85%. In the case of `O=[As](O)(c1ccccc1)c1ccc(O)cc1`, the inhibition is reported as inactive: 12.2%. For `O=[N+]([O-])c1ncn(CCn2cnc([N+](=O)[O-])n2)n1`, the inhibition was inactive: 0.21%. In the case of `CC(=O)NC(SC(=S)N(C)C)C(Cl)(Cl)Cl` (centres undefined), the inhibition is reported as inactive: 4.83%. With `O=C(OC1CN2CCC1CC2)c1cccc(Cl)c1` (centres undefined) the inhibition was inactive: -0.6%. With `Nc1ccc([As](=O)(O)c2ccc([N+](=O)[O-])cc2)cc1` the inhibition was inactive: 0.76%. With `C(Cc1nn[nH]n1)Cc1nn[nH]n1` the inhibition was inactive: 2.99%. In the case of `O=P(Nc1nccs1)(c1ccccc1)c1ccccc1`, the inhibition is reported as inactive: 7.3%. With `CC(C)C(=O)NC(Sc1ccccc1)C(Cl)(Cl)Cl` (centres undefined) the inhibition was inactive: 8.79%. For `c1nnnn1CCn1cnnn1`, the inhibition was inactive: 6.58%. In the case of `O=P1(Nc2nc3ccc(Cl)cc3s2)COc2ccccc2O1` (centres undefined), the inhibition is reported as inactive: -3.71%. With `CCOc1ccc(C2=NCC(CBr)S2)cc1` (centres undefined) the inhibition was inactive: 2.16%. For `CC(C)(C)C(=O)NC(Sc1ccccc1)C(Cl)(Cl)Cl` (centres undefined), the inhibition was inactive: 2.07%. In the case of `CCN(CC)CCOC(=O)C(O)(c1ccccc1)c1ccccc1`, the inhibition is reported as inactive: 6.72%. For `C[C@@H]1C=CCP(=O)(Oc2ccccc2)O1` (some centres undefined), the inhibition was inactive: -1.91%. For `C[C@H]1OP(=O)(Oc2ccccc2)C[C@@H]2O[C@@H]21` (some centres undefined), the inhibition was inactive: -1.49%. For `CC(=O)Nc1ccc([As](=O)(O)O)c(O)c1`, the inhibition was inactive: 3.93%. `CC(=O)Nc1ccc(Oc2c([N+](=O)[O-])cc([N+](=O)[O-])cc2[N+](=O)[O-])cc1` was tested, and the inhibition was inactive: 7.24%. In the case of `c1ccc(-c2nn[nH]n2)c(-c2nn[nH]n2)c1`, the inhibition is reported as inactive: 5.31%. In the case of `CCOC(=O)NC(Sc1ccccc1)C(Cl)(Cl)Cl` (centres undefined), the inhibition is reported as inactive: 1.1%. `Cc1ccc(NP(=O)(Oc2cccc(C)c2)Oc2cccc(C)c2)nc1` was tested, and the inhibition was inactive: -3.27%. In the case of `O=C(NC1CCS(=O)(=O)C1)NP(=S)(Oc1ccccc1)Oc1ccccc1` (centres undefined), the inhibition is reported as inactive: -0.9%. For `CCNC(=S)/N=C(\N)N[N+](=O)[O-]`, the inhibition was inactive: 0.69%. `CCC(=O)N1C2C3N(C(=O)CC)C1C1N(C(=O)CC)C(C(N1C(=O)CC)N3C(=O)CC)N2C(=O)CC` was tested, and the inhibition was inactive: 18.6%. For `COC(=O)c1cc2c(s1)N=C(c1ccccc1)N(C)P2(=O)N1CCOCC1` (centres undefined), the inhibition was inactive: 12.9%. `Cc1ccc(OP(=O)(Nc2ccccn2)Oc2ccc(C)cc2)cc1` was tested, and the inhibition was inactive: 16.3%. For `CC(=O)NC(SC(=S)N(CC(C)C)CC(C)C)C(Cl)(Cl)Cl` (centres undefined), the inhibition was inactive: -0.17%. With `Cc1ccccc1OP(=O)(Nc1ccccn1)Oc1ccccc1C` the inhibition was inactive: 3.37%. `CN(C)C(=O)Oc1noc2ccccc12` was tested, and the inhibition was inactive: 5.23%. With `O=c1c2cc([N+](=O)[O-])ccc2[nH]c2c([N+](=O)[O-])cc([N+](=O)[O-])cc12` the inhibition was inactive: 1.51%. `O=P(Nc1nc2ccc(Cl)cc2s1)(c1ccccc1)c1ccccc1` was tested, and the inhibition was inactive: -0.67%. For `O=C(O)c1ccccc1[As](=O)(O)O`, the inhibition was inactive: -1.33%. With `CC(=O)Nc1ccc([As](=O)(O)O)cc1` the inhibition was inactive: -0.06%. In the case of `CCOP(=O)(Nc1ccccc1)OCC`, the inhibition is reported as inactive: 2.64% and inactive: -3.06%. In the case of `Cc1cc(SC(NC(=O)c2ccc(F)cc2)C(Cl)(Cl)Cl)ncn1` (centres undefined), the inhibition is reported as inactive: 3.6%. In the case of `Cc1ccc(NP(=O)(Oc2ccccc2F)Oc2ccccc2F)nc1`, the inhibition is reported as inactive: -4.38%. With `Nc1cccc2ccc([As](=O)(O)O)cc12` the inhibition was inactive: 3.08%. With `CCN(N=Nc1nonc1N)c1nonc1N` the inhibition was inactive: 5.71%. In the case of `Cc1ccc(N/C(=N/P(=O)(N2CCOCC2)N2CCOCC2)N2CCOCC2)cc1`, the inhibition is reported as inactive: -1.39%. With `NC(=O)c1cc([N+](=O)[O-])cc([N+](=O)[O-])c1N` the inhibition was inactive: 11.2%. With `Clc1ccc(Cl)c(NC2=NCC(CBr)S2)c1` (centres undefined) the inhibition was inactive: 5.63%. For `CN1CCCC(OC(=O)C(c2ccccc2)c2ccccc2)C1` (centres undefined), the inhibition was inactive: 9.14%. In the case of `Cc1ccc(OP(=O)(Nc2nccs2)Oc2ccc(C)cc2)cc1`, the inhibition is reported as inactive: 3.27%. With `Oc1ccccc1CNc1ccccn1` the inhibition was inactive: 11.2%. `Cc1c2non([O-])c-2c(C)[n+](=O)[n+]1[O-]` was tested, and the inhibition was inactive: 2.17%. For `O=C(NC(Sc1ccncn1)C(Cl)(Cl)Cl)c1ccccc1` (centres undefined), the inhibition was inactive: -0.86%. With `CC(C)CC(=O)NC(Sc1ccc(Cl)cc1)C(Cl)(Cl)Cl` (centres undefined) the inhibition was inactive: -2.36%. For `COc1ccc(C2=NCC(CBr)S2)cc1` (centres undefined), the inhibition was inactive: -0.61%. For `Cc1ccc(NP(=O)(Oc2ccccc2)Oc2ccccc2)nc1`, the inhibition was inactive: 0.27%. For `C=C1C/C(=C/C)C(=O)O[C@@H]2CCN3CC=C(COC(=O)[C@]1(C)O)[C@H]23`, the inhibition was inactive: 6.29%. For `O=[N+]([O-])c1cc([N+](=O)[O-])c(CCNc2ccccc2)c([N+](=O)[O-])c1`, the inhibition was inactive: 10.4%. In the case of `CCc1nc2c(n1)c1c(non1O)c1c2no[n+]1[O-]`, the inhibition is reported as inactive: -0.45%. In the case of `CC(=O)N1C2C3N(C(C)=O)C1C1N(C(C)=O)C(C(N1C(C)=O)N3C(C)=O)N2C(C)=O`, the inhibition is reported as inactive: -5.56%. `O=[N+]([O-])c1cccc2n[nH]nc12` was tested, and the inhibition was inactive: 11.7%. With `CCN(/C(=N/P(=O)(N1CCOCC1)N1CCOCC1)N1CCOCC1)c1ccc(OC)cc1` the inhibition was inactive: -0.41%. In the case of `Nc1ccc([As](=O)(O)c2ccc(N)cc2)cc1`, the inhibition is reported as inactive: 8.22%. In the case of `C[N+]1=C2C=CC=CC=C2SC12C([N+](=O)[O-])=CC([N+](=O)[O-])=C[C-]2[N+](=O)[O-]` (centres undefined), the inhibition is reported as inactive: 16.2%. For `CC1CCN(C(=O)Oc2c(Cl)cc(Cl)c3cccnc23)CC1`, the inhibition was inactive: 1.89%. `CC(C)=N/N=C(\N)N[N+](=O)[O-]` was tested, and the inhibition was inactive: -3.42%. In the case of `CN(C)C(=O)OCCc1n(C)cc[n+]1C`, the inhibition is reported as inactive: -0.75%. In the case of `O=C(Nc1cc([As](=O)(O)O)ccc1O)c1ccccc1`, the inhibition is reported as inactive: -1.73%. For `O=[N+]([O-])c1ncn(CCn2ncnc2[N+](=O)[O-])n1`, the inhibition was inactive: 0.76%.

— PubChem BioAssay AID1445 (SRMLSC, 2008)
